Assay results reported in paper PMC8297954 (Frontiers in Microbiology, 2021).

Sequences of proteins named here, by UniProt entry; tags and fusion partners are left off.
UniProt P59637, whole entry, looked up: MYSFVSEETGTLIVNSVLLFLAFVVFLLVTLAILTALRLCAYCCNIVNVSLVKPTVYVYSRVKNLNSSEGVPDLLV

Biological target: T1, SARS CoV E protein (Severe acute respiratory syndrome coronavirus, UniProt P59637)
Assay: not given
Details: read-out: MTT IC50; inhibition of E-protein induced cytotoxicity, HEK293, 4 days after transfection, corrected for pRK control; means ± SEM

Q: With `CCCCC[C@H](O)CC(=O)CCc1ccc(O)c(OC)c1` [6-Gingerol, 6-gingerol] as the compound, how does the IC50 read?
A: 48 µM

Q: For `CCCCCCC[C@H](O)CC(=O)CCc1ccc(O)c(OC)c1` [8-Gingerol, 8-gingerol], which IC50 is on record?
A: 69 µM

Q: `O=c1cc(-c2ccc(O)cc2)oc2cc(O)cc(O)c12` [Apigenin, apigenin] was tested. Which IC50 did it give?
A: 6.6 µM

Q: For `O=C(O[C@@H]1Cc2c(O)cc(O)cc2O[C@@H]1c1cc(O)c(O)c(O)c1)c1cc(O)c(O)c(O)c1` [EGCG, epigallocatechin gallate], which IC50 is on record?
A: 2.9 µM

Q: For `N=C(N)NC(=O)c1nc(Cl)c(N2CCCCCC2)nc1N` [HMA, 5-(N,N-hexamethylene)amiloride], which IC50 is on record?
A: 2.4 µM

Q: How did the IC50 turn out when `O=c1c(O)c(-c2ccc(O)cc2)oc2cc(O)cc(O)c12` [Kaempferol, kaempferol] was run?
A: 6.1 µM

Q: For `O=C1C[C@@H](c2ccc(O)cc2)Oc2cc(O)cc(O)c21` [Naringenin, naringenin], which IC50 is on record?
A: 51 µM

Q: How did the IC50 turn out when `COc1ccc(-c2cc(=O)c3c(OC)c(OC)c(OC)c(OC)c3o2)cc1OC` [Nobiletin, nobiletin] was run?
A: 55.1 µM

Q: Which IC50 does the source give for `O=c1c(O)c(-c2ccc(O)c(O)c2)oc2cc(O)cc(O)c12` [Quercetin, quercetin] here?
A: 2 µM

Q: With `Oc1ccc(/C=C/c2cc(O)cc(O)c2)cc1` [Resveratrol, resveratrol] as the compound, how does the IC50 read?
A: 11 µM

Q: How did the IC50 turn out when `CC(N)C12CC3CC(CC(C3)C1)C2` (stereo not shown) [Rimantadine, rimantadine, reference compound] was run?
A: 15.9 µM

Biological target: T1, SARS CoV E protein
Assay: Whole-cell patch clamp of proton currents in permeant ion-reduced NMDG buffer, pH 5.5
Details: read-out: patch clamp IC50, HEK293, NMDG-HEPES-MES buffer, pH 5.5, holding potential -60 mV

Q: `N=C(N)NC(=O)c1nc(Cl)c(N2CCCCCC2)nc1N` [HMA, 5-(N,N-hexamethylene)amiloride] was tested. Which IC50 did it give?
A: 0.14 nM

Q: `CC(N)C12CC3CC(CC(C3)C1)C2` (stereo not shown) [Rimantadine, rimantadine, reference compound] was tested. Which IC50 did it give?
A: 1.5 nM
